Data as given in PubChem BioAssay AID1259414 (Drosophila RNAi Screening Center, 2018)
In all, the deposit lists about 24,000 reagents; below is an unselected part of those that have a named target and a result. Of all reagents, about 1,210 (5%) were called active. 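Inactive calls also include excluded dsRNAs with several or no targets, genes unexpressed in JW18, and well A1, regardless of score.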 Entries without a mark were called inactive. The numbers tell different reagents against one gene apart. No sequences are given here.

Purpose: 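Host factors increasing or decreasing Wolbachia levels in cultured fly cells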 (primary screen)
Cells: Drosophila JW18 cells infected with Wolbachia
Reagent: long dsRNA against Drosophila genes, 0.25 µg dsRNA per well of a 384-well plate
Time to read-out: 5 days
Challenge: cells persistently infected with Wolbachia before knock-down; no added drug
Read-out: 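Imaged fluorescence in situ signal for Wolbachia 23S rRNA per DAPI-counted host cell, given as a robust z-score within each plate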
Scale: Wolbachia per cell robust z: higher = more Wolbachia per host cell than the plate typical
Active means: 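Active if absolute robust z reaches 1.5 in two or more of three replicates, leaving out multi- or no-target dsRNAs, genes unexpressed in JW18 and A1 wells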

Elba3 (Early boundary activity 3) showed Wolbachia per cell robust z, rep 1 = 1.26; Wolbachia per cell robust z, rep 2 = 0.982; Wolbachia per cell robust z, rep 3 = 1.06.
Silencing of CtIP (CTBP-interacting protein) #1 came out at: Wolbachia per cell robust z, rep 1 = 0.424; Wolbachia per cell robust z, rep 2 = -0.29; Wolbachia per cell robust z, rep 3 = 0.872.
After knock-down of CtIP (CTBP-interacting protein) #2 the results were Wolbachia per cell robust z, rep 1 = -1.1; Wolbachia per cell robust z, rep 2 = -0.851; Wolbachia per cell robust z, rep 3 = -1.21.
REPTOR-BP (REPTOR-binding partner) scored Wolbachia per cell robust z, rep 1 = 1.63; Wolbachia per cell robust z, rep 2 = 0.0388; Wolbachia per cell robust z, rep 3 = 0.853.
Polr2L (RNA polymerase II, I and III subunit L) gave Wolbachia per cell robust z, rep 1 = -0.0982; Wolbachia per cell robust z, rep 2 = -2.07; Wolbachia per cell robust z, rep 3 = 1.74.
NimB2 (Nimrod B2) scored Wolbachia per cell robust z, rep 1 = -2.5; Wolbachia per cell robust z, rep 2 = 0.649; Wolbachia per cell robust z, rep 3 = -0.982.
After knock-down of tsl (torso-like), the record shows Wolbachia per cell robust z, rep 1 = -0.283; Wolbachia per cell robust z, rep 2 = -3.98; Wolbachia per cell robust z, rep 3 = 0.378.
With knock-down of Mi-2 #1, the record shows Wolbachia per cell robust z, rep 1 = 3.6 (active); Wolbachia per cell robust z, rep 2 = 3.88; Wolbachia per cell robust z, rep 3 = 3.05.
Knock-down of Mi-2 #2 gave: Wolbachia per cell robust z, rep 1 = 0.599; Wolbachia per cell robust z, rep 2 = 1.45; Wolbachia per cell robust z, rep 3 = 1.25.
After knock-down of slim (scruin like at the midline) the results were Wolbachia per cell robust z, rep 1 = 0.708; Wolbachia per cell robust z, rep 2 = -1; Wolbachia per cell robust z, rep 3 = 1.15.
For CG6005, the values are Wolbachia per cell robust z, rep 1 = 0.807; Wolbachia per cell robust z, rep 2 = 0.642; Wolbachia per cell robust z, rep 3 = -1.98.
After knock-down of Scsalpha2 (Succinyl-coenzyme A synthetase alpha subunit 2) the results were Wolbachia per cell robust z, rep 1 = 0.072; Wolbachia per cell robust z, rep 2 = 0.542; Wolbachia per cell robust z, rep 3 = 0.466.

Active calls, of those listed so far:
Mi-2 #1: Wolbachia per cell robust z, rep 1 = 3.6 (active); Wolbachia per cell robust z, rep 2 = 3.88; Wolbachia per cell robust z, rep 3 = 3.05
